## Sequence variants of PSTVd loop 6 after infection

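Three N. benthamiana plants were inoculated with the whole mutant pool. Samples came from the inoculated region at 5 days, the leaf margin at 10 and upper systemic leaves at 12.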

The pool varies loop 6 of the PSTVd intermediate strain in the pattern UNNNCGNNNG; wild type is UGACCGCGAG (upper and lower strand joined, each 5' to 3', the first 5 letters being the upper strand, closing pairs included).

Numbers give reads per thousand; 0 = not seen among the reads, higher = more abundant.
Each site shows the three plants.
"Pool" is the share in the plasmid pool used as inoculum, on the same scale.
The inoculated region was read from the minus strand, the other sites from the plus strand.
For reference, wild type rose from 20.7 per thousand in the pool to 195, 198, 203 (inoculated region), 629, 591, 734 (leaf margin) and 942, 870, 868 (systemic leaves).

* UUUUCGAGAG (pool 0.157) -> inoculated region 0.156 / 0.108 / 0.111; leaf margin 0.0276 / 0 / 0; systemic leaves 0 / 0.0202 / 0
* UUGUCGCUGG (pool 0.222) -> inoculated region 0.0869 / 0.0898 / 0.0553; leaf margin 0.0276 / 0 / 0; systemic leaves 0 / 0 / 0
* UCUACGUCGG (pool 0.157) -> inoculated region 0.122 / 0.0719 / 0.0738; leaf margin 0.0828 / 0 / 0; systemic leaves 0 / 0 / 0
* UCUACGGUUG (pool 0.235) -> inoculated region 0.139 / 0.0898 / 0.0922; leaf margin 0 / 0 / 0.0232; systemic leaves 0 / 0 / 0
* UGCACGGCCG (pool 0.209) -> inoculated region 0.0348 / 0.108 / 0.0553; leaf margin 0 / 0 / 0.0232; systemic leaves 0 / 0 / 0
* UACGCGAUUG (pool 0.170) -> inoculated region 0.0869 / 0.0719 / 0.0738; leaf margin 0 / 0 / 0; systemic leaves 0 / 0 / 0
* UUCACGCCAG (pool 0.275) -> inoculated region 0.104 / 0.126 / 0.111; leaf margin 0 / 0 / 0; systemic leaves 0 / 0 / 0
* UCCCCGGAAG (pool 0.131) -> inoculated region 0.139 / 0.126 / 0.0738; leaf margin 0 / 0 / 0.0464; systemic leaves 0 / 0 / 0
* UCACCGAUAG (pool 0.248) -> inoculated region 0.104 / 0.144 / 0.129; leaf margin 0 / 0 / 0.209; systemic leaves 0 / 0 / 0
* UGAACGGCUG (pool 0.301) -> inoculated region 0.747 / 0.826 / 0.590; leaf margin 0.193 / 0.101 / 0.116; systemic leaves 0 / 0 / 0
* UAAACGCGCG (pool 0.0654) -> inoculated region 0.747 / 0.521 / 0.664; leaf margin 0.0828 / 0.126 / 0.0928; systemic leaves 0.0359 / 0.0606 / 0
* UAUACGAGCG (pool 0.261) -> inoculated region 0.886 / 0.736 / 0.572; leaf margin 0.110 / 0.0757 / 0.0232; systemic leaves 0 / 0 / 0
* UACACGGGCG (pool 0.157) -> inoculated region 0.591 / 0.701 / 0.553; leaf margin 0.166 / 0.0504 / 0.0232; systemic leaves 0 / 0 / 0
* UCCAGGUUCG (pool 0.0131) -> inoculated region 0 / 0 / 0; leaf margin 0 / 0 / 0; systemic leaves 0 / 0 / 0
* UACUCGCGUG (pool 0.314) -> inoculated region 0.104 / 0.108 / 0.0553; leaf margin 0 / 0.0504 / 0.0464; systemic leaves 0.0180 / 0 / 0
* UUCUCGCAAG (pool 0.144) -> inoculated region 0.122 / 0.108 / 0.166; leaf margin 0 / 0 / 0; systemic leaves 0 / 0 / 0
* UUAUCGCUCG (pool 0.405) -> inoculated region 0.0869 / 0.108 / 0.0184; leaf margin 0 / 0 / 0; systemic leaves 0 / 0 / 0
* UUUCCGGAUG (pool 0.288) -> inoculated region 0.104 / 0.0898 / 0.129; leaf margin 0.0552 / 0 / 0.0464; systemic leaves 0 / 0 / 0
* UGAUCGGGGG (pool 0.157) -> inoculated region 0.139 / 0.0539 / 0.111; leaf margin 0 / 0 / 0; systemic leaves 0 / 0 / 0
* UCGUCGCUAG (pool 0.170) -> inoculated region 0.0869 / 0.108 / 0.0922; leaf margin 0 / 0 / 0; systemic leaves 0 / 0 / 0
* UAUUCGAACG (pool 0.222) -> inoculated region 0.122 / 0.144 / 0.0738; leaf margin 0 / 0 / 0.0232; systemic leaves 0 / 0 / 0
* UAAACGGAAG (pool 0.131) -> inoculated region 0.834 / 0.808 / 0.959; leaf margin 0.0552 / 0.202 / 0.0696; systemic leaves 0 / 0.0808 / 0.0820
* UUGUCGUGAG (pool 0.340) -> inoculated region 0.0695 / 0.0719 / 0.221; leaf margin 0 / 0 / 0.0232; systemic leaves 0 / 0 / 0
* UGCUCGACUG (pool 0.288) -> inoculated region 0.0869 / 0.0359 / 0.0553; leaf margin 0 / 0 / 0; systemic leaves 0 / 0 / 0
* UAAUCGCCGG (pool 0.301) -> inoculated region 0.104 / 0.0539 / 0.0553; leaf margin 0 / 0 / 0.0464; systemic leaves 0 / 0 / 0
* UGCCCGGUGG (pool 0.157) -> inoculated region 0.174 / 0.0359 / 0.111; leaf margin 0 / 0.0252 / 0; systemic leaves 0 / 0 / 0
* UUAACGUUGG (pool 0.301) -> inoculated region 0.139 / 0.0539 / 0.129; leaf margin 0 / 0 / 0.0232; systemic leaves 0 / 0 / 0
* UUCACGCAGG (pool 0.209) -> inoculated region 0.0521 / 0.108 / 0.0922; leaf margin 0.0276 / 0 / 0.0464; systemic leaves 0 / 0 / 0
* UGGACGAAAG (pool 0.131) -> inoculated region 0.122 / 0.0539 / 0.0738; leaf margin 0 / 0 / 0; systemic leaves 0 / 0 / 0
* UAGUCGCCCG (pool 0.327) -> inoculated region 0.104 / 0.0539 / 0.0553; leaf margin 0.0276 / 0 / 0; systemic leaves 0 / 0 / 0

Samples held 36,220 to 57,551 reads, so the smallest values rest on one or two reads.
The authors trace changes outside the varied positions to PCR and sequencing errors or to mutation in the plant; presence does not show that a variant is infectious alone.

Source: Wu et al. 2024 (doi:10.1371/journal.ppat.1012142), supplementary data.